Among the data in US20220025003A1 (published 2022) are IC50 values, retold here.

The assay deals with NS3a (active), Avi-His6-NS3a catalytically active. In words: FRET-based protease inhibition assay; ANR-GST fusion.

B1: ANR-GST (His6-ANR-GST) (other)
chain: MHHHHHHGSGTGSGELGRLVYLLDGPGYDPIHSDGTGSSPILGYWKIKGLVQPTRLLLEYLEEKYEEHLYERDEGDKWRNKKFELGLEFPNLPYYIDGDVKLTQSMAIIRYIADKHNMLGGCPKERAEISMLEGAVLDIRYGVSRIAYSKDFETLKVDFLSKLPEMLKMFEDRLCHKTYLNGDHVTHPDFMLYDALDVVLYMDPMCLDAFPKLVCFKKRIEAIPQIDKYLKSSKYIAWPLQGWQATFGGGDHPPKSDLVPR
A word on the IC50: it is the concentration that inhibits the measured activity by half. Read a high IC50 as weaker potency. For B1, the IC50 was less than 50 nM.
